Measurements as given in patent US20120202754A1 (priority 2009, published 2012).

By UniProt entry, the sequences of proteins in these tests, tags left out. Residues count along the entry.
UniProt P0DPI0, 2-448 limits assumed: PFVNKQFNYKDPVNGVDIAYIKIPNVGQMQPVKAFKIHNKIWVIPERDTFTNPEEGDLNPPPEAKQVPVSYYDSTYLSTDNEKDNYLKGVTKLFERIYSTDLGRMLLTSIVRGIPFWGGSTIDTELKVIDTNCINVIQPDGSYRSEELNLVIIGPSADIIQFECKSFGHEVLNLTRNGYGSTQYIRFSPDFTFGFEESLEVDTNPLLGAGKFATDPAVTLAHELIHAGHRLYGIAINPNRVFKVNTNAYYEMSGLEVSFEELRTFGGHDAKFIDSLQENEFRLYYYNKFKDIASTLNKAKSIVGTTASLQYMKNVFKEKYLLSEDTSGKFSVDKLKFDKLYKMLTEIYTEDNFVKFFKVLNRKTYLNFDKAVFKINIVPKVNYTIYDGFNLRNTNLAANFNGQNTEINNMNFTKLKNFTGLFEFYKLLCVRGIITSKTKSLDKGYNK

Assays:
[1] = Solubility in aqueous buffers
[2] = molecular target: T1, BoNT A light chain (BoNT A Lc) (Clostridium botulinum, UniProt P0DPI0)
BoNT A protease activity [3] = molecular target: T2, BoNT A protease activity (Clostridium botulinum, UniProt P0DPI0); details: cited from earlier work
BoNT A protease activity [4] = molecular target: T2, BoNT A protease activity; experiment: Kinetic constants of BoNT A substrates taken from the literature (references 25, 26, 27); details: versus flP6
[5] = molecular target: T1, BoNT A light chain (BoNT A Lc); experiment: FRET fluorescence assay of BoNT A-Lc protease activity with flP6
[6] = Table 4, FRET substrates, from references (25), (27)
[7] = Table 3, from references (25), (26)

With `CC[C@H](C)[C@H](NC(=O)[C@H](CCCNC(=N)N)NC(=O)[C@@H](NC(=O)[C@H](CCCNC(=N)N)NC(C)=O)C(C)C)C(=O)N[C@@H](CC(=O)O)C(=O)N[C@@H](C)C(=O)N[C@@H](C)C(=O)N[C@@H](CC(N)=O)C(=O)N[C@@H](CCC(N)=O)C(=O)N[C@@H](CCCNC(=N)N)C(=O)N[C@@H](C)C(=O)N[C@H](C(=O)N[C@@H](CCCNC(=N)N)C(=O)N[C@@H](CCSC)C(N)=O)[C@@H](C)O` the “solubility in aqueous buffers” value [1] was “at least 6 mM” and the Km [2] was 52 µM.
In the case of FITC-T(D)RIDQANQ(Ψ)RATK(εDabcyl)nL, the Km (BoNT A protease activity [3]; [6]) is listed as ≥ 100 µM, the Km (BoNT A protease activity [3]; estimated, reference (27)) is listed as ≥ 100 µM and the “type of kinetics (in words)” value (BoNT A protease activity [3]; reported in reference (27), rate linear up to solubility limit) is listed as “non-saturable kinetics”. The “Km, fold higher than that of flP6” value (BoNT A protease activity [4]) was 8 fold and the “kcat/Km, fold lower than that of flP6” value (BoNT A protease activity [4]) was 30 fold.
For S N K T R I D E A N Q R A T K M L, the Km (BoNT A protease activity [3]; [7]) is listed as 1100 µM and the kcat (BoNT A protease activity [3]; [7]) is listed as 23 ± 1.0 s⁻¹.
For SNRTRIDEAN[dnpK]RA[daciaC]RML, the kcat (BoNT A protease activity [3]; Table 4, FRET substrates, from reference (25)) is listed as 7.2 ± 0.40 s⁻¹ and the Km (BoNT A protease activity [3]; [6]) is listed as 96 µM.
“[DabcylK] R V R I D A A N Q R A T R M [SFC]” showed a hydrolysis rate ([5]; 1.3 μM flP6, 4 nM BoNT A light chain) of 980 fluorescence units/min, a hydrolysis rate ([5]; 2.5 μM flP6, 4 nM BoNT A light chain) of 1800 fluorescence units/min and a hydrolysis rate ([5]; 5.0 μM flP6, 4 nM BoNT A light chain) of 2999 fluorescence units/min. It also gave a hydrolysis rate ([5]; 10 μM flP6, 1 nM light chain) of 1030 fluorescence units/min, a hydrolysis rate ([5]; 10 μM flP6, 2 nM light chain) of 2220 fluorescence units/min and a hydrolysis rate ([5]; 10 μM flP6, 3 nM light chain) of 3265 fluorescence units/min. For the same compound, the hydrolysis rate ([5]; 10 μM flP6, 4 nM BoNT A light chain) was 5537 fluorescence units/min, the hydrolysis rate ([5]; 10 μM flP6, 4 nM light chain) was 4712 fluorescence units/min and the “substrate cleaved by BoNT A-Lc (post-reaction HPLC)” value ([5]; 10 μM flP6, 5 nM BoNT A-Lc, 15 minutes) was 60%. The “average slope (reaction rate) of linear portion of fluorescence curve” value ([5]; 10 μM flP6, 5 nM BoNT A-Lc, pH 7.3, 25° C, 3 min to 7 min, three assays) was 6381±1204 fluorescence units/min, the hydrolysis rate ([5]; 10 μM flP6, 5 nM light chain) was 6049 fluorescence units/min and the “fluorescence, fold higher than that of the blank” value ([5]; 10 μM flP6, 5 nM light chain, at 15 minutes) was 28 fold. The “stability in the assay conditions (fluorescence of blank)” value ([5]; 10 μM flP6 without BoNT A-Lc, pH 7.3, 25° C) was “stable”, the “net fluorescence increase compared with Fl-A” value ([5]; 10 μM substrate, 5 nM BoNT A light chain) was “seven-fold higher” and the Km [2] was 13 µM.

Like-named read-outs stand apart in the source and are kept apart here.
